{"source": "PubChem BioAssay AID1259414, Drosophila RNAi Screening Center – 2018", "purpose": "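Genome-wide screen for host control of endosymbiont load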 (primary screen)", "cell system": "Drosophila JW18 cells infected with Wolbachia", "reagents": "long dsRNA against Drosophila genes, 0.25 µg dsRNA per well of a 384-well plate", "time to read-out": "5 days", "challenge": "cells persistently infected with Wolbachia before knock-down; no added drug", "measurement": "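Imaged fluorescence in situ signal for Wolbachia 23S rRNA per DAPI-counted host cell, given as a robust z-score within each plate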", "scale": "Wolbachia per cell robust z: higher = more Wolbachia per host cell than the plate typical", "hit rule": "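Active if absolute robust z reaches 1.5 in two or more of three replicates, leaving out multi- or no-target dsRNAs, genes unexpressed in JW18 and A1 wells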", "note": "The screen tested about 24,000 reagents; below is an unselected part of those that have a named target and a result. Of all reagents, about 1,210 (5%) are marked active. 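Inactive calls also include excluded dsRNAs with several or no targets, genes unexpressed in JW18, and well A1, regardless of score.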"}
{"predicted target": "CG18586", "dsRNA": "DRSC10325", "Wolbachia per cell robust z, rep 1": 0.82, "Wolbachia per cell robust z, rep 2": 1.25, "Wolbachia per cell robust z, rep 3": 0.175, "call": "inactive"}
{"predicted target": "CG5026", "dsRNA": "DRSC10470", "Wolbachia per cell robust z, rep 1": 0.505, "Wolbachia per cell robust z, rep 2": -0.0225, "Wolbachia per cell robust z, rep 3": -0.654, "call": "inactive"}
{"predicted target": "idc", "dsRNA": "DRSC15680", "Wolbachia per cell robust z, rep 1": 1.51, "Wolbachia per cell robust z, rep 2": 1.1, "Wolbachia per cell robust z, rep 3": 0.595, "call": "inactive"}
{"predicted target": "bam", "dsRNA": "DRSC16907", "Wolbachia per cell robust z, rep 1": 0.124, "Wolbachia per cell robust z, rep 2": 0.587, "Wolbachia per cell robust z, rep 3": -0.39, "call": "inactive"}
{"predicted target": "bam", "dsRNA": "DRSC39113", "Wolbachia per cell robust z, rep 1": -0.992, "Wolbachia per cell robust z, rep 2": 0.218, "Wolbachia per cell robust z, rep 3": -2.73, "call": "inactive"}
{"predicted target": "Pde9", "dsRNA": "DRSC19746", "Wolbachia per cell robust z, rep 1": -3.21, "Wolbachia per cell robust z, rep 2": -0.282, "Wolbachia per cell robust z, rep 3": -0.519, "call": "inactive"}
{"predicted target": "Pde9", "dsRNA": "DRSC19874", "Wolbachia per cell robust z, rep 1": -0.239, "Wolbachia per cell robust z, rep 2": 0.0136, "Wolbachia per cell robust z, rep 3": 0.853, "call": "inactive"}
{"predicted target": "Pde9", "dsRNA": "DRSC19875", "Wolbachia per cell robust z, rep 1": 0.649, "Wolbachia per cell robust z, rep 2": -0.993, "Wolbachia per cell robust z, rep 3": -4.61, "call": "inactive"}
{"predicted target": "Pde9", "dsRNA": "DRSC19876", "Wolbachia per cell robust z, rep 1": -0.344, "Wolbachia per cell robust z, rep 2": -1.15, "Wolbachia per cell robust z, rep 3": -3.26, "call": "inactive"}
{"predicted target": "Pde9", "dsRNA": "DRSC25304", "Wolbachia per cell robust z, rep 1": -0.0941, "Wolbachia per cell robust z, rep 2": 0.677, "Wolbachia per cell robust z, rep 3": -0.451, "call": "inactive"}
{"predicted target": "emb", "dsRNA": "DRSC03528", "Wolbachia per cell robust z, rep 1": -2.58, "Wolbachia per cell robust z, rep 2": -0.526, "Wolbachia per cell robust z, rep 3": 0.0155, "call": "inactive"}
{"predicted target": "aub", "dsRNA": "DRSC03486", "Wolbachia per cell robust z, rep 1": -0.648, "Wolbachia per cell robust z, rep 2": -0.613, "Wolbachia per cell robust z, rep 3": -0.224, "call": "inactive"}
{"predicted target": "aub", "dsRNA": "DRSC26878", "Wolbachia per cell robust z, rep 1": -0.246, "Wolbachia per cell robust z, rep 2": -1.3, "Wolbachia per cell robust z, rep 3": -0.946, "call": "inactive"}
{"predicted target": "Grl62c", "dsRNA": "DRSC38623", "Wolbachia per cell robust z, rep 1": -0.774, "Wolbachia per cell robust z, rep 2": -2.8, "Wolbachia per cell robust z, rep 3": -1.72, "call": "inactive"}
{"predicted target": "Afg3l2", "dsRNA": "DRSC10657", "Wolbachia per cell robust z, rep 1": 0.45, "Wolbachia per cell robust z, rep 2": -0.574, "Wolbachia per cell robust z, rep 3": -1.4, "call": "inactive"}
{"predicted target": "Afg3l2", "dsRNA": "DRSC29981", "Wolbachia per cell robust z, rep 1": -0.645, "Wolbachia per cell robust z, rep 2": 0.221, "Wolbachia per cell robust z, rep 3": -0.76, "call": "inactive"}
{"predicted target": "CG6674", "dsRNA": "DRSC10692", "Wolbachia per cell robust z, rep 1": 0.127, "Wolbachia per cell robust z, rep 2": -0.167, "Wolbachia per cell robust z, rep 3": 1.02, "call": "inactive"}
{"predicted target": "CG34260", "dsRNA": "DRSC41339", "Wolbachia per cell robust z, rep 1": -0.55, "Wolbachia per cell robust z, rep 2": -0.683, "Wolbachia per cell robust z, rep 3": -0.254, "call": "inactive"}
{"predicted target": "TwdlN", "dsRNA": "DRSC25037", "Wolbachia per cell robust z, rep 1": -0.266, "Wolbachia per cell robust z, rep 2": 1.58, "Wolbachia per cell robust z, rep 3": 0.688, "call": "inactive"}
{"predicted target": "mRpL35", "dsRNA": "DRSC14586", "Wolbachia per cell robust z, rep 1": 0.797, "Wolbachia per cell robust z, rep 2": 0.338, "Wolbachia per cell robust z, rep 3": 1.07, "call": "inactive"}

Looked up above.
Entry for CG34260 [DRSC41339] in “call”: inactive
Under “Wolbachia per cell robust z, rep 3”, mRpL35 [DRSC14586] reads 1.07
Pde9 [DRSC19875], Wolbachia per cell robust z, rep 1: 0.649
Grl62c [DRSC38623], Wolbachia per cell robust z, rep 1 = -0.774

Further entries follow:
{"predicted target": "Sec3", "dsRNA": "DRSC10384", "Wolbachia per cell robust z, rep 1": -0.624, "Wolbachia per cell robust z, rep 2": 2.05, "Wolbachia per cell robust z, rep 3": -0.095, "call": "inactive"}
{"predicted target": "CG32085", "dsRNA": "DRSC10138", "Wolbachia per cell robust z, rep 1": -0.15, "Wolbachia per cell robust z, rep 2": -1.27, "Wolbachia per cell robust z, rep 3": -0.927, "call": "inactive"}
{"predicted target": "CG32085", "dsRNA": "DRSC10139", "Wolbachia per cell robust z, rep 1": -0.377, "Wolbachia per cell robust z, rep 2": 0.17, "Wolbachia per cell robust z, rep 3": 1.39, "call": "inactive"}
{"predicted target": "CG32085", "dsRNA": "DRSC10576", "Wolbachia per cell robust z, rep 1": -0.0275, "Wolbachia per cell robust z, rep 2": 0.973, "Wolbachia per cell robust z, rep 3": 0.8, "call": "inactive"}
{"predicted target": "LRR", "dsRNA": "DRSC06444", "Wolbachia per cell robust z, rep 1": -0.726, "Wolbachia per cell robust z, rep 2": -0.193, "Wolbachia per cell robust z, rep 3": -0.2, "call": "inactive"}
{"predicted target": "LRR", "dsRNA": "DRSC24790", "Wolbachia per cell robust z, rep 1": 1.99, "Wolbachia per cell robust z, rep 2": 0.675, "Wolbachia per cell robust z, rep 3": 0.175, "call": "inactive"}
{"predicted target": "Ho", "dsRNA": "DRSC14939", "Wolbachia per cell robust z, rep 1": -0.813, "Wolbachia per cell robust z, rep 2": 0.0509, "Wolbachia per cell robust z, rep 3": -1.23, "call": "inactive"}
{"predicted target": "Dgkepsilon", "dsRNA": "DRSC07399", "Wolbachia per cell robust z, rep 1": 0.669, "Wolbachia per cell robust z, rep 2": 0.000148, "Wolbachia per cell robust z, rep 3": 0.361, "call": "inactive"}
{"predicted target": "Pof", "dsRNA": "DRSC04405", "Wolbachia per cell robust z, rep 1": -0.173, "Wolbachia per cell robust z, rep 2": -6.66, "Wolbachia per cell robust z, rep 3": 0.34, "call": "inactive"}
{"predicted target": "Ass", "dsRNA": "DRSC28238", "Wolbachia per cell robust z, rep 1": 1.14, "Wolbachia per cell robust z, rep 2": -0.128, "Wolbachia per cell robust z, rep 3": 0.439, "call": "inactive"}
